Experimental findings from patent US6340697B1, “Oxime derivatives and agricultural chemicals containing the same” (Dainippon Ink and Chemicals, Inc., priority 1997, dated 2002) are described below.

The assay relates to Pseudoperonospora cubensis (a metalaxyl resistant fungi strain). Kind of assay: Control test of plant disease caused by Pseudoperonospora cubensis (leaf disc test; Test Examples 3 and 8). The class given is in vivo.

`Cc1nonc1C(=NOCc1ccccn1)c1ccc(Cl)cc1` [4-(c)-3]: the Evaluation entry (Test Example 8, leaf disc test, same method as Test Example 3, Table 99) is on record as “B (grade “B” was selected when the number of diseased plants, which include plants with lesions or withered plants, is around 10% among the total numbers of plants)”.
Regarding `Cc1nsnc1C(=NOCc1csc(NC(=O)C(Cl)Cl)n1)c1ccccc1` [8-(b)-18], for the setting “cucumber leaf disc immersed 30 minutes at 10 ppm, metalaxyl resistant strain, 7 days”, the Evaluation result is listed as “B (grade “B” was selected when the number of diseased plants, which include plants with lesions or withered plants, is around 10% among the total numbers of plants)”.
